Anti-infective test results gathered from many reports (values: NIAID ChemDB through PubChem).

Shared fields: tests in culture; agent: Herpes simplex virus 2

Blank or dashed fields: not listed here.

| structure | cells | read by | dose | endpoint | strain or isolate | value |
|---|---|---|---|---|---|---|
| NCC(=O)N[C@@H](Cc1ccccc1)C(=O)OCCOCn1cnc2c(=O)[nH]c(N)nc21 |  |  |  | MIC | 196 | 4.5 µM |
| O=C(O)CP(=O)(O)O | HEL | cytopathic effect |  | EC50 | ACV-resistant | 11 µg/mL |
| O=c1[nH]c(=O)n([C@H]2C[C@H](O)[C@@H](CO)O2)c[c]1[Hg+].O=c1cc[nH]c(=S)[nH]1 | KB | virus yield |  | EC50 | HG-25 | 4.608 µg/mL |
| O=C(O)P(=O)(O)O | SIRC | plaque count | 100 µM | inhibition | 91075 | 91% |
| Nc1nc(=O)n([C@H]2O[C@@H](CO)C[C@H]2F)cc1Br | VERO |  |  | EC50 |  | >100 µM |
| Nc1ncnc2c1ncn2CCOCP(=O)(O)O |  |  |  | MIC |  | 7 µg/mL |
| O=c1c(O)c(-c2ccc(O)c(O)c2)oc2cc(O)cc(O)c12 | VERO |  | 60 µg/mL | inhibition |  | 65% |
| Nc1nc2c(ncn2COC(CO)CO)c(=O)[nH]1 |  |  |  | MIC | 196 | 0.63 µM |
| Nc1ncnc2c1ncn2[C@@H]1C=C(CO)[C@@H](O)[C@H]1O |  |  |  | MIC | G | 10 µg/mL |
| Nc1ncnc2c1ncn2C[C@@H](CO)OCP(=O)(O)O | HEL | cytopathic effect |  | EC50 | ACV-resistant | 0.011 µg/mL |
| O=c1[nH]c(=O)n([C@@H]2O[C@@H](CO)C[C@H]2F)cc1F | VERO |  |  | EC50 |  | >100 µM |
| COc1cc2c(cc1-c1cc3cc4ccoc4cc3oc1=O)OCO2 | VERO | plaque count | 50 µg/mL | inhibition | 186 | 23.7% |
| Nc1nc2c(ncn2COCCOC(=O)CNC(=O)[C@@H](N)Cc2ccccc2)c(=O)[nH]1 |  |  |  | MIC | 196 | 0.48 µM |
| Cc1cn([C@H]2O[C@@H](CO)C[C@H]2F)c(=O)nc1N | VERO |  |  | EC50 |  | >100 µM |
| O=C(O)P(=O)(O)O | VERO | cytopathic effect | 79.4 µM | inhibition | TK- | >25% |
| Nc1ccn(C[C@@H](CO)OCP(=O)(O)O)c(=O)n1 | HEL | cytopathic effect |  | EC50 | ACV-resistant | 0.1 µg/mL |
| Nc1nc(N)c2ncn(CCOCP(=O)(O)O)c2n1 |  |  |  | MIC |  | 0.7 µg/mL |
| CCOC(=O)P(=O)(OC)OC[C@H]1O[C@@H](n2cc(I)c(=O)[nH]c2=O)C[C@@H]1O | VERO | cytopathic effect | 5.9 µM | inhibition | TK- | >25% |
| COc1cc2c(cc1CO)CC[C@H]1C(C)(CO)CCC[C@]21C | VERO | plaque count | 100 µM | inhibition |  | 100% |
| CC(C)(C)C(=O)OCOC(=O)CN(CC(=O)OCOC(=O)C(C)(C)C)P(=O)(OC[C@H]1O[C@@H](n2cc(/C=C/Br)c(=O)[nH]c2=O)C[C@@H]1O)Oc1ccccc1 | HEL |  |  | EC50 | G | >4 µM |
| O=c1[nH]c(=O)n([C@H]2C[C@H](O)[C@@H](CO)O2)c[c]1[Hg+].OCC[S-] | HELA TK- | virus yield |  | EC50 | HG-25 | 0.053 µg/mL |
| Nc1nc2c(ncn2COCCO)c(=O)[nH]1 | VERO | cytopathic effect | 1.3 µM | inhibition | K979 | >25% |
| O=c1[nH]c(=O)n([C@H]2C[C@H](O)[C@@H](CO)O2)c[c]1[Hg+] | HELA TK- | virus yield |  | EC50 | HG-25 | 0.148 µg/mL |
| CCOC(=O)P(=O)(O)OC[C@H]1O[C@@H](n2cc(CCCl)c(=O)[nH]c2=O)C[C@@H]1O | VERO | cytopathic effect | 234 µM | inhibition | TK- | >25% |
| O=c1[nH]c(=O)n([C@@H]2O[C@@H](CO)C[C@H]2F)cc1Br | VERO |  |  | EC50 |  | >100 µM |
| Nc1nc(N)c2ncn(CCOCP(=O)(O)O)c2n1 | HEL | cytopathic effect |  | EC50 | PCV-resistant/B | 2 µg/mL |
| O=C(O)CP(=O)(O)O | VERO | cytopathic effect | 71.4 µM | inhibition | K979 | >25% |
| O=C1c2cc3ccoc3cc2O[C@@H]2COc3cc4c(cc3[C@]12O)OCO4 | VERO | plaque count | 50 µg/mL | inhibition | 186 | 42.5% |
| CC(C)[C@H](N)C(=O)N[C@H](C(=O)OCCOCn1cnc2c(=O)[nH]c(N)nc21)C(C)C |  |  |  | MIC | 196 | 1.3 µM |
| COP(=O)(CC(=O)O[C@H]1C[C@H](n2cc(CCCl)c(=O)[nH]c2=O)O[C@@H]1CO)OC | VERO | cytopathic effect | 227 µM | inhibition | TK- | >25% |

4 of the rows above, restated:

| structure | cells | read by | dose | endpoint | strain or isolate | value |
|---|---|---|---|---|---|---|
| O=C(O)CP(=O)(O)O | HEL | cytopathic effect |  | EC50 | ACV-resistant | 11 µg/mL |
| Cc1cn([C@H]2O[C@@H](CO)C[C@H]2F)c(=O)nc1N | VERO |  |  | EC50 |  | >100 µM |
| Nc1nc2c(ncn2COC(CO)CO)c(=O)[nH]1 |  |  |  | MIC | 196 | 0.63 µM |
| O=C(O)P(=O)(O)O | SIRC | plaque count | 100 µM | inhibition | 91075 | 91% |

Inhibition is in % at the dose shown (toxicity tests: loss of growth or viability). Conditions beyond the fields shown may differ between rows. ECn is the concentration giving n% inhibition of infection, replication or growth.